Compound potency records, mixed from different reports. Data source: NIAID ChemDB in PubChem.

Common to all: whole-cell or culture tests; agent: Candida albicans

MIC50, MIC90 and the like: level of inhibition, or share of isolates inhibited.

| smiles | method | read-out | strain or isolate | value |
|---|---|---|---|---|
| Nc1ncnc2c1ncn2[C@@H]1O[C@H](C(=O)NCC(=O)O)[C@@H](NC(=O)[C@H](N)CSCc2ccccc2)[C@H]1O |  | MIC | FP633 | 100 µg/mL |
| CCCCCOc1ccc(-c2ccc(-c3ccc(C(=O)N[C@H]4CCCNC(=O)C5C[C@@H](O)N5C(=O)C(C(C)O)NC(=O)C(CCc5ccc(O)cc5)NC(=O)C5C[C@@H](O)CN5C(=O)C(C(C)O)NC4=O)cc3)cc2)cc1 |  | MIC | ATCC 62376 | 1.56 µg/mL |
| Nc1ncnc2c1ncn2[C@@H]1O[C@H](C(=O)O)[C@@H](NC(=O)C(N)Cc2ccc(F)cc2)[C@H]1O |  | MIC | FP633 | 25 µg/mL |
| C[C@@H]1C(=O)N(Cc2ccccc2)C(=O)[C@@H]1C | broth dilution / turbidity | MIC | ATCC 10231 | 31.3 µg/mL |
| CCCCCOc1ccc(-c2ccc(-c3ccc(C(=O)N[C@H]4CCCNC(=O)C5C[C@H](N)CN5C(=O)C(C(C)O)NC(=O)C(Cc5ccccc5)NC(=O)C5C[C@@H](O)CN5C(=O)C(C(C)O)NC4=O)cc3)cc2)cc1 |  | MIC | ATCC 62376 | 1.56 µg/mL |
| C[C@@H](c1ncncc1F)[C@](O)(Cn1cncn1)c1ccc(F)cc1F |  | MIC90 | ATCC 90028 | 0.29 µg/mL |
| C[C@@H]1CC(=O)N(CCCCc2ccccc2)C1=O | broth dilution / turbidity | MIC | ATCC 10231 | 31.3 µg/mL |
| COC1CC2CCC(C)C(O)(O2)C(=O)C(=O)N2CCCCC2C(=O)OC(C(C)CC2CCC(O)C(OC)C2)CC(=O)C(C)/C=C(\C)C(O)[C@@](OC)(N(O)C(=O)OCC(C)C)C(=O)C(C)CC(C)/C=C/C=C/C=C/1C |  | MFC | RBP1/RBP1 | >100 µg/mL |
| CCCCCOc1ccc(-c2ccc(-c3ccc(C(=O)N[C@H]4CCCNC(=O)C5C[C@H](NC(=O)OC)CN5C(=O)C(C(C)O)NC(=O)C(CCc5ccc(O)cc5)NC(=O)C5C[C@@H](O)CN5C(=O)C(C(C)O)NC4=O)cc3)cc2)cc1 |  | MIC | ATCC CCH442 | 0.2 µg/mL |
| CC[C@@H]([C@H](C)O)n1ncn(-c2ccc(N3CCN(c4ccc(OC[C@@H]5CO[C@@](Cn6cncn6)(c6ccc(F)cc6F)C5)cc4)CC3)cc2)c1=O |  | MIC50 | 13 strains (fluconazole-resistant) | 2 µg/mL |
| CC1C(=O)N(Cc2ccccc2)C(=O)C1C | broth dilution / turbidity | MIC | ATCC 10231 | 125 µg/mL |
| Nc1ncnc2c1ncn2[C@@H]1O[C@H](C(=O)NCCCC(N)C(=O)O)[C@@H](NC(=O)[C@H](N)CSCc2ccccc2)[C@H]1O |  | MIC | FP633 | >100 µg/mL |
| CCCCCOc1ccc(-c2ccc(-c3ccc(C(=O)N[C@H]4CCCNC(=O)[C@@H]5C[C@H](NC(=O)c6ccccc6)CN5C(=O)[C@H]([C@@H](C)O)NC(=O)[C@H](CCc5ccc(O)cc5)NC(=O)[C@@H]5C[C@@H](O)CN5C(=O)[C@H]([C@@H](C)O)NC4=O)cc3)cc2)cc1 |  | MIC | ATCC 38247 | 25 µg/mL |
| C=CCc1ccc(OC)c(OC)c1 | turbidity | MIC90 | 3048 | 350 µg/mL |
| CCCCCOc1ccc(-c2ccc(-c3ccc(C(=O)N[C@H]4CCCNC(=O)[C@@H]5C[C@H](N=C(N)N)CN5C(=O)[C@H]([C@@H](C)O)NC(=O)[C@H](CCc5ccc(O)cc5)NC(=O)[C@@H]5C[C@@H](O)CN5C(=O)[C@H]([C@@H](C)O)NC4=O)cc3)cc2)cc1 |  | MIC | ATCC 38247 | 0.39 µg/mL |
| COC1CC2CCC(C)C(O)(O2)C(=O)C(=O)N2CCCCC2C(=O)OC(C(C)CC2CCC(O)C(OC)C2)CC(=O)C(C)/C=C(\C)[C@@](O)(c2ccc(C)s2)C(OC)C(=O)C(C)CC(C)/C=C/C=C/C=C/1C |  | MIC | WILD TYPE | >100 µg/mL |
| CC(=C/C=C/C(=O)O)/C=C/C=C(\C)C(O)C(C)C(=O)O[C@H]1C[C@H](C)C=C2C=C[C@@]3(C)O[C@@H](O)CC(=O)[C@]3(C)[C@H]21 |  | MIC | ATCC 62376 | 3.12 µg/mL |
| CS(=O)(=O)C[C@@H](N)C(=O)N[C@H]1[C@@H](O)[C@H](n2cnc3c(N)ncnc32)O[C@@H]1C(=O)O |  | MIC | FP633 | >100 µg/mL |
| CCCCCCCCCCCCCCC(=O)N[C@H]1CCCNC(=O)[C@@H]2C[C@H](N)CN2C(=O)[C@H]([C@@H](C)O)NC(=O)[C@H](CCc2ccc(O)cc2)NC(=O)[C@@H]2C[C@@H](O)CN2C(=O)[C@H]([C@@H](C)O)NC1=O |  | MIC | ATCC 38247 | 0.78 µg/mL |
| C[C@@H]1CC(=O)N(c2ccc(Br)cc2)C1=O | broth dilution / turbidity | MIC | ATCC 10231 | 125 µg/mL |
| C[C@@H](O)[C@@H]1NC(=O)[C@H](CCc2ccc(O)cc2)NC(=O)[C@@H]2C[C@@H](O)CN2C(=O)[C@H]([C@@H](C)O)NC(=O)[C@@H](NCC2CCCCC2)CCCNC(=O)[C@@H]2C[C@H](N)CN2C1=O |  | MIC | ATCC 38247 | 0.2 µg/mL |
| CCCCCOc1ccc(-c2ccc(-c3ccc(C(=O)N[C@H]4CCCNC(=O)C5C[C@H](NC6CCNCC6)CN5C(=O)C(C(C)O)NC(=O)C(CCc5ccc(O)cc5)NC(=O)C5C[C@@H](O)CN5C(=O)C(C(C)O)NC4=O)cc3)cc2)cc1 |  | MIC | ATCC CCH442 | 0.39 µg/mL |
| CCCCCCCOc1ccc(N2CCN(c3ccc(C(=O)N[C@H]4CCCNC(=O)[C@@H]5C[C@H](N)CN5C(=O)[C@H]([C@@H](C)O)NC(=O)[C@H](Cc5ccc(CO)cc5)NC(=O)[C@@H]5CCCN5C(=O)[C@H](C(C)O)NC4=O)cc3)CC2)cc1 |  | MIC | ATCC 62376 | 12.5 µg/mL |
| C=CCSCC(N)C(=O)N[C@H]1[C@@H](O)[C@H](n2cnc3c(N)ncnc32)O[C@@H]1C(=O)O |  | MIC | FP633 | 0.2 µg/mL |
| Fc1ccc(CCCCn2c3c(c4cc(F)ccc42)CNCC3)cc1 |  | MIC | 04-81 | 1 µg/mL |
| Nc1ncnc2c1ncn2[C@@H]1O[C@H](C(=O)O)[C@@H](NC(=O)[C@H](N)CSSc2ccccc2)[C@H]1O |  | MIC | FP633 | 25 µg/mL |
| OC(CN1CCN(c2ccc(OCc3ccncc3)cc2)CC1)(Cn1cncn1)c1ccc(F)cc1F |  | MIC80 | SC5314 | 0.016 µg/mL |
| Nc1ncnc2c1ncn2[C@@H]1O[C@H](C(=O)O)[C@@H](NC(=O)C(N)CSCc2ccccc2)[C@H]1O |  | MIC | FP633 | 0.1 µg/mL |
| CCCCCCCCOc1ccc(N2CCN(c3ccc(C(=O)N[C@H]4CCCNC(=O)C5C[C@H](N)CN5C(=O)C(C(C)O)NC(=O)[C@@H](OCc5ccccc5)NC(=O)C5C[C@@H](O)CN5C(=O)C(C(C)O)NC4=O)cc3)CC2)cc1 |  | MIC | ATCC 62376 | >100 µg/mL |
| CCCCCOc1ccc(-c2ccc(-c3ccc(C(=O)N[C@H]4CCCNC(=O)[C@@H]5CCCN5C(=O)[C@H]([C@@H](C)O)NC(=O)[C@H](CCc5ccc(O)cc5)NC(=O)[C@@H]5C[C@@H](O)CN5C(=O)[C@H]([C@@H](C)O)NC4=O)cc3)cc2)cc1 |  | MIC | ATCC 62376 | 3.12 µg/mL |
| CCOP(=O)(CCNC(=O)[C@H]1O[C@@H](n2cnc3c(N)ncnc32)[C@H](O)[C@@H]1NC(=O)[C@H](N)CSCc1ccccc1)OCC |  | MIC | FP633 | 3.1 µg/mL |

For reference, 5 entries again:

smiles,method,read-out,strain or isolate,value
C[C@@H]1CC(=O)N(c2ccc(Br)cc2)C1=O,broth dilution / turbidity,MIC,ATCC 10231,125 µg/mL
CCCCCOc1ccc(-c2ccc(-c3ccc(C(=O)N[C@H]4CCCNC(=O)[C@@H]5CCCN5C(=O)[C@H]([C@@H](C)O)NC(=O)[C@H](CCc5ccc(O)cc5)NC(=O)[C@@H]5C[C@@H](O)CN5C(=O)[C@H]([C@@H](C)O)NC4=O)cc3)cc2)cc1,,MIC,ATCC 62376,3.12 µg/mL
COC1CC2CCC(C)C(O)(O2)C(=O)C(=O)N2CCCCC2C(=O)OC(C(C)CC2CCC(O)C(OC)C2)CC(=O)C(C)/C=C(\C)[C@@](O)(c2ccc(C)s2)C(OC)C(=O)C(C)CC(C)/C=C/C=C/C=C/1C,,MIC,WILD TYPE,>100 µg/mL
CCCCCOc1ccc(-c2ccc(-c3ccc(C(=O)N[C@H]4CCCNC(=O)C5C[C@H](N)CN5C(=O)C(C(C)O)NC(=O)C(Cc5ccccc5)NC(=O)C5C[C@@H](O)CN5C(=O)C(C(C)O)NC4=O)cc3)cc2)cc1,,MIC,ATCC 62376,1.56 µg/mL
CS(=O)(=O)C[C@@H](N)C(=O)N[C@H]1[C@@H](O)[C@H](n2cnc3c(N)ncnc32)O[C@@H]1C(=O)O,,MIC,FP633,>100 µg/mL

Neighbouring rows are from separate reports. An empty or dashed field is not shown.